{"source": "paper PMC5559489", "about": "(Scientific Reports, 2017)", "target": "influenza A(H1N1)pdm2009 virus neuraminidase (NA) (Influenza A virus, UniProt C3W5S3)", "experiment": "fluorescence-based neuraminidase inhibition (NAI) assay with 4-MU-NANA, A(H1N1)pdm09 isolates"}
{"compound": "CCOC(=O)C1=C[C@@H](OC(CC)CC)[C@H](NC(C)=O)[C@@H](N)C1", "note": "[oseltamivir, Oseltamivir]", "values": [{"measurement": "share of resistant viruses among tested viruses, Pandemic A(H1N1)", "setting": "samples of 2013 (June–Sept.)", "value": 2.52, "unit": "%"}, {"measurement": "share of resistant viruses among tested viruses, Pandemic A(H1N1)", "setting": "samples of 2014 (March–April)", "value": 2.32, "unit": "%"}]}
